PubChem BioAssay AID1259414, Drosophila RNAi Screening Center – 2018
Purpose: 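Host factors increasing or decreasing Wolbachia levels in cultured fly cells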 (primary screen). Cell system: Drosophila JW18 cells infected with Wolbachia. Reagent: long dsRNA against Drosophila genes, 0.25 µg dsRNA per well of a 384-well plate. Timing: 5 days. Conditions: cells persistently infected with Wolbachia before knock-down; no added drug. Measurement: 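Automated imaging of bacterial rRNA staining divided by host cell count, reported as plate-normalised robust z-score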. Scale: Wolbachia per cell robust z: higher = more Wolbachia per host cell than the plate typical. Call rule: 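Hit when robust z is 1.5 or more, or -1.5 or less, in at least two of three replicates; excludes dsRNAs with several or no targets, genes not expressed in JW18 and well A1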.
In all, the deposit lists about 24,000 reagents; this is an unselected part of those with a known target gene and a result. Of all reagents, about 1,210 (5%) were called active. 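Inactive calls also include excluded dsRNAs with several or no targets, genes unexpressed in JW18, and well A1, regardless of score.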 A plus sign joins genes that one reagent is predicted to hit. Reagent sequences are not shown.

gene	DRSC id	Wolbachia per cell robust z, rep 1	Wolbachia per cell robust z, rep 2	Wolbachia per cell robust z, rep 3	Call
CheA86a	DRSC38820	-0.475	-0.615	-0.0354	inactive
CG18171	DRSC08524	0.325	-0.878	-3.29	inactive
CG18171	DRSC26270	-2.94	-0.014	-0.898	inactive
CG31687 + Cdc23	DRSC23052	0.948	0.666	0.317	inactive
BCL7-like	DRSC17729	-2.76	0.447	0.0817	inactive
BCL7-like	DRSC29657	-0.541	-1.49	0.586	inactive
bb8	DRSC15578	0.412	0.642	-0.00179	inactive
tef	DRSC07301	-1.64	-0.0112	-1.18	inactive
tef	DRSC22041	-0.382	-1.71	-0.161	inactive
tef	DRSC26918	0.113	-1.28	0.319	inactive
CG12857	DRSC06197	0.589	0.228	0.339	inactive
CG12849	DRSC04129	0.464	-0.847	0.185	inactive
Sgs4	DRSC18715	0.0785	-0.677	-2.68	inactive
Sgs4	DRSC28964	0.844	-0.122	0.426	inactive
CG9500	DRSC03237	1.13	0.931	0.612	inactive
b	DRSC03487	0.658	0.192	0.243	inactive
b	DRSC28837	0.889	-0.592	-1.34	inactive
CG7841	DRSC10922	0.112	-1.56	-1.19	inactive
elav	DRSC18772	-0.011	-3.26	-0.449	inactive
RfC38	DRSC29807	-1.02	-0.0782	-1.17	inactive
Vsx1	DRSC23004	0.349	-0.044	1.1	inactive
Vsx1	DRSC25808	-1.96	1.1	-0.511	inactive
SMC3	DRSC20227	-2.6	-0.222	-3.86	active
Skadu	DRSC40619	-0.0875	-0.481	-0.179	inactive
Ir52d	DRSC06264	0.0513	0.373	-0.971	inactive
Nxt1	DRSC04630	-1.62	0.422	0.196	inactive
Nxt1	DRSC28865	-0.166	0.543	0.719	inactive
CtsL2	DRSC06978	-0.442	-1.53	1	inactive
CG31204	DRSC15106	-3.84	-2.94	1.33	inactive
CG31204	DRSC28757	0.267	0.476	-0.756	inactive
CG15531	DRSC15068	-2.46	0.225	-0.0359	inactive
CG15531	DRSC24882	-0.676	0.546	0.247	inactive
CG15531	DRSC39079	-0.545	0.22	0.0982	inactive
tra	DRSC11405	1.04	-8.27	1	inactive
tra	DRSC40824	0.133	0.873	0.287	inactive
CG43367	DRSC08299	-0.597	0.62	-0.292	inactive
CG43367	DRSC08301	0.36	-1.7	-0.822	inactive
CG43367	DRSC08309	0.00616	-2.03	-0.115	inactive
CG43367	DRSC24732	1.3	0.123	0.531	inactive
CG13712	DRSC08321	0.233	1.19	-0.647	inactive
CG1213	DRSC12191	0.937	-1.06	-2.26	inactive
Rlip	DRSC16828	-0.719	0.104	-0.519	inactive
Rpt3	DRSC20283	2.21	2.12	2.35	active
Rpt3	DRSC23412	1.84	2.49	2.23	active
Ilk	DRSC11868	-0.102	0.674	1.18	inactive
CG33080	DRSC18080	1.01	-1.82	0.507	inactive
CG33080	DRSC18081	1.2	1.28	0.951	inactive
CG33080	DRSC18285	0.685	-4.33	0.847	inactive
CG33080	DRSC25974	-3.23	0.163	0.634	inactive
CG6023	DRSC19970	-5.08	-0.368	0.37	inactive
ZnT33D	DRSC02591	1.8	0.0528	0.724	inactive
dpr5	DRSC15766	-2.2	-4.87	-3.46	inactive
dpr5	DRSC25239	0.829	0.433	0.43	inactive
Pgant2	DRSC00587	-0.715	-0.103	-0.699	inactive
RpS13	DRSC03419	1.16	4.29	5.7	active
RpS13	DRSC28558	2.94	4.33	4.85	active
FAM21	DRSC06623	0.106	0.711	-0.207	inactive
FAM21	DRSC26589	0.725	-0.0137	0.129	inactive
FAM21	DRSC39034	0.08	0.527	-1.18	inactive
CG5181	DRSC02825	-1.06	-0.17	-0.46	inactive
boss	DRSC16916	0.389	0.628	0.499	inactive
boss	DRSC25941	0.151	0.044	-0.158	inactive
epsilonCOP	DRSC02003	0.066	-0.812	1.44	inactive
epsilonCOP	DRSC26466	0.605	-1.15	-0.327	inactive
CG5065	DRSC06912	0.811	0.0721	0.85	inactive
CG16826	DRSC02527	1.08	0.91	-4.68	inactive
CG42394 + CG6567	DRSC40574	-0.965	-2.26	-0.438	inactive
Rpi	DRSC04583	0.55	-0.627	0.041	inactive

Hits, of those listed so far:
gene	DRSC id	Wolbachia per cell robust z, rep 1	Wolbachia per cell robust z, rep 2	Wolbachia per cell robust z, rep 3	Call
SMC3	DRSC20227	-2.6	-0.222	-3.86	active
Rpt3	DRSC20283	2.21	2.12	2.35	active
Rpt3	DRSC23412	1.84	2.49	2.23	active
RpS13	DRSC03419	1.16	4.29	5.7	active
RpS13	DRSC28558	2.94	4.33	4.85	active
